Measurements from patent US20180214569A1 (Regeneron, published 2018).

Tests used:
[1] = target: T1, mutant Hemolysin A (Hla-H35L) (Staphylococcus aureus); assay: SPR (Biacore T200), mAb captured via anti-human Fc, toxin injected, 25 C
[2] = target: T1, mutant Hemolysin A (Hla-H35L); assay: SPR (Biacore T200), mAb captured via anti-human Fc, toxin injected, 37 C
[3] = target: T2, wild type S. aureus Hemolysin A toxin (Staphylococcus aureus)
[4] = target: T2, wild type S. aureus Hemolysin A toxin; assay: cell-based or functional assay

B1: H1H15379P (antibody, V domains shown)
VH: EVQLVESGGGLVQPGWSLRLSCAASGFTFDDYAMHWVRQAPGKGLEWVSGISWNSDDIDYTDSVKGRFTVSRDNAKNSLYLQMNSLRADDTAFYYCVRQRVRGYYYFGMDVWGQGTTVTVSS
VL: DIQMTQSPSSLSASVGDRVTITCRASQGISNYLAWFQQKPGKAPMSLIYAASSLQSGVPSKFSGSGSGTDFTLTISSLQPEDFATYYCQQYNSYPFTFGPGTKVDIK
**Q.** For B1, which Kd [1] is on record?
**A.** 6.51 nM

**Q.** And the koff [1]?
**A.** 0.00443 s⁻¹

**Q.** What about the kon [1] of the same binder?
**A.** 681000 M⁻¹ s⁻¹

**Q.** What about the t1/2 [1] of the same binder?
**A.** 2.6 min

**Q.** What about the Kd [2] of the same binder?
**A.** 18.7 nM

**Q.** What about the koff [2] of the same binder?
**A.** 0.012 s⁻¹

**Q.** What about the kon [2] of the same binder?
**A.** 641000 M⁻¹ s⁻¹

**Q.** What about the t1/2 [2] of the same binder?
**A.** 1 min

**Q.** And the Kd [3]?
**A.** 26.1 nM

**Q.** And the koff [3]?
**A.** 0.00634 s⁻¹

**Q.** And the kon [3]?
**A.** 243000 M⁻¹ s⁻¹

**Q.** What about the t1/2 [3] of the same binder?
**A.** 1.8 min

**Q.** What about the “IC50 [M] for Hemolysin A neutralization (THP-1 cytotoxicity assay)” value [4] of the same binder?
**A.** 6.95e-09 M
